From PMC10480232 (Scientific Reports, 2023)

Target: T1, MERS-CoV spike heptad repeat 1 peptide, biotinylated (MERS-CoV, biotin (position not given))
T1 chain: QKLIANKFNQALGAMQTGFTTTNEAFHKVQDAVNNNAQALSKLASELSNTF
Experiment: BLI

## VGRFRRLRKKTRKRLKKIGKVLKWIPPIVGSIPLGSG [Yongshi (pSer), C36S derivative of the wild boar cathelicidin peptide PMAP-36R]
  Kd: 38.8 µM
